Among the data in publication PMC12567398, “New Assay Systems to Characterize the Broad-Spectrum Antiherpesviral and Non-Herpesviral Activity of Cyclin-Dependent Kinase (CDK) 8 Inhibitors” (Pharmaceuticals, 2025) are SI values, retold here.

In one data set the test system is EHV-1-GFP. In words: EHV-1-GFP antiviral assay, GFP fluorometry. Type of data set: cell-based, equine herpesvirus 1.
Another data set concerns HHV-6A-GFP. In words: HHV-6A plaque reduction assay in HFFs. The following applies: HFF.
Data set [1] relates to Epstein–Barr virus P3HR-1. In words: EBV lytic assay in TPA-induced P3HR-1 cells, qPCR. It counts as cell-based. Background: In qPCR the cycle at which signal appears reflects the starting amount.
Another data set concerns EHV-1. As to the kind of experiment: EHV-1-specific qPCR of virus release into culture medium. It counts as cell-based, equine herpesvirus 1.
Another data set has as its system MHV-68-Luc. In words: MHV-68-Luc luciferase reporter assay. Type of data set: cell-based, murine herpesvirus 68. (In general: In a reporter assay the amount or activity of a reporter protein is the signal.)
Where [2] appears, read: Vero, reference compounds, ratio CC50 / EC50.
Where [3] appears, read: HFF, reference compounds, ratio CC50 / EC50.

Like-named read-outs stand apart in the source and are kept apart here. Some results are limits rather than exact numbers.

Regarding `Nc1ccn(C[C@@H](CO)OCP(=O)(O)O)c(=O)n1` [CDV, cidofovir], the SI in the data set with EHV-1-GFP (GFP / COS-7) was 26.8; in the data set with EHV-1-GFP (setting [2]), greater than 22.2; in the data set on HHV-6A-GFP, greater than 250.0.

Consider `CC(C)OC(=O)[C@H](C)N[P@](=O)(CO[C@H](C)Cn1cnc2c(N)ncnc21)Oc1ccccc1` [TAF, tenofovir alafenamide], for which the SI in data set [1] is listed as greater than 55.6.

For `CN(C)C(=O)Cn1cc(-c2ccc(-c3cncc4ccccc34)cc2)cn1` [BI-1347], the SI is greater than 625.0 with EHV-1-GFP (GFP / COS-7); > 16,667 in the data set with EHV-1 (qPCR / COS-7); > 2,500 in the data set on EHV-1 (qPCR / HFF); greater than 18.2 in data set [1] (EBV, P3HR-1); > 1,000,000.0 in the data set on MHV-68-Luc (COS-7); > 2,500.0 in the data set with MHV-68-Luc (HFF). The SI in the data set on MHV-68-Luc (MEF) is > 16,666.7; with MHV-68-Luc (Vero), > 200,000.0; in the data set on SARS-CoV-2 d6-YFP (SARS-CoV-2, Caco-2), greater than 4.4; in the data set with HHV-6A-GFP, greater than 500.0.

Consider `CC(C)Nc1nc2cc(Cl)c(Cl)cc2n1[C@H]1O[C@@H](CO)[C@H](O)[C@@H]1O` [MBV, maribavir], for which the SI in the data set on MHV-68-Luc (MEF) was 3.0; with MHV-68-Luc (Vero), greater than 11.3.

`Cn1ncc2cc(-c3cnc(N)c(Cl)c3N3CCC4(CCNC4=O)CC3)ccc21` [CCT-251921]: the SI with EHV-1-GFP (GFP / COS-7) is greater than 500.0; in the data set on EHV-1 (qPCR / COS-7) it was greater than 166.7; with EHV-1 (qPCR / HFF), greater than 62.5; in data set [1], greater than 40.0; in the data set on MHV-68-Luc (COS-7), > 20,000.0; in the data set with MHV-68-Luc (HFF), greater than 55.6. Also, the SI in the data set on MHV-68-Luc (MEF) is on record as > 1,000.0; in the data set with MHV-68-Luc (Vero), > 50,000.0; in the data set with SARS-CoV-2 d6-YFP (SARS-CoV-2, Caco-2), greater than 1.6; in the data set with HHV-6A-GFP it was > 2,500.0.

With `O=C(O)P(=O)(O)O` [FOS, foscarnet], the results for the SI in the data set on MHV-68-Luc (MEF) and in the data set with MHV-68-Luc (Vero) were 24.1 and greater than 27.5, respectively.

Turning to `CCCCCCCCCCCCCCCCOCCCOP(=O)(O)CO[C@H](CO)Cn1ccc(N)nc1=O` [BCV, brincidofovir], the SI with EHV-1-GFP (GFP / COS-7) is listed as 245.0; with EHV-1-GFP (setting [3]) it was 633.3; in the data set on EHV-1-GFP (setting [2]) it was 650.0; in the data set with MHV-68-Luc (COS-7) it was greater than 50.0; with MHV-68-Luc (MEF), greater than 100.0; in the data set on MHV-68-Luc (Vero), > 1,000.0. Besides, the SI in the data set with HHV-6A-GFP is on record as > 5,000.0.

In the data set with SARS-CoV-2 d6-YFP, `O=c1nc(NO)ccn1[C@@H]1O[C@H](CO)[C@@H](O)[C@H]1O` [EIDD-1931] came in with an SI greater than 24.4.

Regarding `CC(C)(C)C(=O)OCOP(=O)(COCCn1cnc2c(N)ncnc21)OCOC(=O)C(C)(C)C` [ADV, adefovir dipivoxil], the SI in data set [1] is given as 54.7.

Take `Nc1nc(O)c2ncn(COC(CO)CO)c2n1` [GCV, ganciclovir]: the SI was greater than 500.0 in the data set on EHV-1-GFP (GFP / COS-7); greater than 38.5 with EHV-1-GFP (setting [3]); > 2,500 with EHV-1-GFP (setting [2]); greater than 111.1 in the data set on MHV-68-Luc (Vero); greater than 40.0 with HHV-6A-GFP.

In the data set with MHV-68-Luc (MEF), `Nc1nc2c(ncn2COCCO)c(=O)[nH]1` [ACV, aciclovir] yielded an SI of 4.5.

On to `Nc1ncnc2c1ncn2CCOCP(=O)(O)O` [AFV, adefovir], for which, in data set [1] (EBV, P3HR-1), the SI was greater than 7.7.
